{"source": "patent US6861448B2", "about": "“NAD synthetase inhibitors and uses thereof” (priority 1998, dated 2005)", "key": {"[1]": {"test_system": "S. aureus (MCR)", "assay": "MIC test (NCCLS broth dilution), growth inhibition", "format": "cell-based", "details": "multiple values = two or more tests; tested form: iodide"}, "[2]": {"test_system": "E. coli", "assay": "MIC test (NCCLS broth dilution), growth inhibition", "format": "cell-based", "details": "in vitro; tested form: iodide"}, "[3]": {"test_system": "S. aureus", "assay": "MIC test (NCCLS broth dilution), growth inhibition", "format": "cell-based", "details": "multiple values = two or more tests; tested form: iodide"}, "[4]": {"test_system": "P aeruginosa", "assay": "MIC test (NCCLS broth dilution), growth inhibition", "format": "cell-based", "details": "in vitro; tested form: iodide"}, "[5]": {"test_system": "C. albicans", "assay": "MIC test, fungal growth inhibition", "details": "in vitro; tested form: iodide"}, "[6]": {"test_system": "A. niger", "assay": "MIC test, fungal growth inhibition", "details": "in vitro; tested form: iodide"}}, "data": [{"smiles": "C[N+](C)(C)[C@@H](Cc1ccccc1)C(=O)NCCCCCCCCOc1ccc(OCc2cccc(Cl)c2)cc1", "values": [{"measurement": "Minimal Inhibitory Concentration (MIC), S. aureus (MCR)", "setting": "[1]", "value": "<0.78", "unit": "µg/mL"}, {"measurement": "Potency to inhibit growth, E. coli (MIC)", "setting": "[2]", "value": ">50", "unit": "µg/mL"}, {"measurement": "Minimal Inhibitory Concentration (MIC), S. aureus", "setting": "[3]", "value": "<1.56", "unit": "µg/mL"}, {"measurement": "Potency to inhibit growth, P aeruginosa (MIC)", "setting": "[4]", "value": ">50", "unit": "µg/mL"}, {"measurement": "Potency to inhibit growth, C. albicans (MIC)", "setting": "[5]", "value": "<3.13", "unit": "µg/mL"}, {"measurement": "Potency to inhibit growth, A. niger (MIC)", "setting": "[6]", "value": ">50", "unit": "µg/mL"}]}]}
